Results of unrelated studies side by side (data: NIAID ChemDB).

Shared fields: tests in culture; agent: Hepatitis C virus; read-out: EC50

Rows are shuffled and stem from different studies. Two numbers with a dash give a range or band. Blank or dashed fields: not listed here. ECn: concentration that inhibits the pathogen or its effect by n%.

SMILES	strain	method	conditions	result
CCCC(NC(=O)[C@@H]1C[C@@H](OC(=O)N2CCc3ccccc3C2)CN1C(=O)C(C)N1CCCC1)C(=O)C(=O)NC1CC1	1b	replicon	-	<100 µM
CC(C)Nc1nccc(O[C@@H]2C[C@H]3C(=O)N[C@]4(C(=O)NS(=O)(=O)C5CC5)C[C@H]4/C=C\CCCCN(C)C(=O)[C@@H]3C2)n1	1b	luciferase / reporter gene / replicon	-	>10 µM
CCCCCCCCOc1ccc(N(C(=O)COC(C)=O)c2nc(-c3cccnc3)c(F)s2)cc1C(F)(F)F	-	-	-	<1 µM
CCCNC(=O)N[C@H](C(=O)N1CC[C@H]2[C@H]1C1(CCC1)C(=O)N2C(=O)C1CC1)C(C)C	-	-	-	1.6 µM
C=CC1CC1(NC(=O)[C@@H]1C[C@@H](Oc2cc(-c3ccccc3)nc3cc(OC)ccc23)CN1C(=O)[C@H](C(C)C)N1CCCCC1)C(=O)NS(=O)(=O)C1CC1	1b	replicon	-	<100 µM
CC(C)[C@H](NC(=O)N[C@H](C(=O)N1CC[C@H]2[C@H]1C1(CCC1)C(=O)N2C(=O)C1CC1)C(C)C)C(=O)OCc1ccccc1	-	-	-	0.1 µM
CCCC(NC(=O)[C@@H]1C[C@@H](OC(=O)N2CCc3ccccc3C2)CN1C(=O)[C@@H](NC(=O)[C@@H](NC(=O)CCCCn1cnnn1)C(C)C)C(C)C)C(=O)C(=O)NC1CC1	-	-	-	>50 µM
CS(=O)(=O)NC(=O)c1c(-c2ccc[nH]c2=O)c2c3occc3c(F)cc2n1Cc1cc(C(N)=O)ccc1F	-	replicon	-	<0.5 µM
CCCNC(=S)N=Nc1c(O)[nH]c2ccccc12	TYPE 2	plaque count	-	>25 µM
O=C(OCc1ccc(Cl)cc1)c1cn(Cc2ccc(Cl)cc2)c2cc(N3CCOCC3)c(F)cc2c1=O	-	replicon	-	1.2 µM
COc1ccc2c(c1)[C@@H]1C[C@]1(C(=O)N1[C@@H]3CC[C@H]1CN(C)C3)Cn1c-2c(C2CCCCC2)c2ccc(C(=O)NS(=O)(=O)N(C)C)nc21	1b	replicon	-	0.001–0.5 µM
CCCCCOc1ccc(N(C(=O)C(=O)OC)c2nc(-c3ccc(Cl)s3)cs2)cc1C(F)(F)F	-	-	-	<1 µM
CC(C)[C@H](NC(=O)N[C@H](CO)C(C)C)C(=O)N1CC[C@H]2[C@H]1C1(CCC1)C(=O)N2C(=O)C1CC1	-	-	-	0.5 µM
C=C[C@@H]1C[C@]1(NC(=O)[C@@H]1C[C@@H]2CN1C(=O)[C@H](C(C)(C)C)NC(=O)OCCC/C=C/c1ccc3ccnc(c3c1)O2)C(=O)NS(=O)(=O)C1CC1	-	luciferase	-	0.00158 µM
Cc1cccc(C(=O)N2c3cccc(O)c3NC3=C(C2c2ccc(Oc4ccccc4Br)cc2F)S(=O)(=O)CC(C)(C)C3)n1	1b	-	-	0.4993 µM
C=CC1C[C@@]1(NC(=O)[C@@H]1C[C@@H](Oc2cc(-c3ccccc3)nc3cc(OC)ccc23)CN1C(=O)[C@H](c1ccccc1)N1CCCCC1)C(=O)NS(=O)(=O)C1CC1	1b	replicon	-	<100 µM
CCCCCN(C)c1ccc(N(C(N)=O)c2nc(-c3ccc(O)c(C(N)=O)c3)cs2)cc1C(F)(F)F	-	-	-	<1 µM
COc1nc(O[C@@H]2C[C@H]3C(=O)N[C@]4(C(=O)NS(=O)(=O)C5CC5)C[C@H]4/C=C\CCCCN(C)C(=O)N3C2)cc(-c2ccccc2)n1	1b	luciferase / reporter gene / replicon	-	1–10 µM
CCCCCOc1ccc(N(C(=O)C(=O)OC)c2nc(C(=O)Nc3cccnc3)cs2)cc1C(F)(F)F	-	-	-	<1 µM
COc1ccc(-c2cc(O[C@@H]3C[C@H]4C(=O)N[C@]5(C(=O)NS(=O)(=O)C6CC6)C[C@H]5/C=C\CCCCN(C)C(=O)[C@@H]4C3)nc(OC)n2)cc1	1b	luciferase / reporter gene / replicon	-	0.2–0.99 µM
CC(C)[C@H](NC(=O)NC1CC1)C(=O)N1CC[C@H]2[C@H]1C1(CCC1)C(=O)N2C(=O)C1CC1	-	-	-	8.5 µM
CCCCCOc1ccc(N(C(=O)CO)c2nc(-c3cccnc3)cs2)cc1C(F)(F)F	-	-	-	<1 µM
COc1ccc2c(O[C@@H]3C[C@H]4C(=O)NC5(C(=O)O)CC5/C=C\CCCCC[C@H](N5CCCCC5)C(=O)N4C3)cc(-c3ccccc3)nc2c1	1b	replicon	-	<100 µM
COc1cc(O[C@@H]2C[C@H]3C(=O)N[C@]4(C(=O)NS(=O)(=O)C5CC5)C[C@H]4/C=C\CCCCCNC(=O)N3C2)nc(-c2ccccc2)n1	1b	luciferase / reporter gene / replicon	-	0.0005–0.199 µM
CCNC(=O)c1ccc(N2CCN(S(=O)(=O)c3ccc(OC(F)(F)F)cc3)C(C(=O)NCc3ccc(OC(F)(F)F)cc3)C2)nn1	1a	replicon	-	0.22 µM
O=C1/C(=C\c2ccc(Cl)cc2)C(=O)N(C2CCCCC2)C(=S)N1c1cccc2ccccc12	-	replicon	-	6.2 µM
O=c1c(O)c(-c2ccc(O)c(O)c2)oc2cc(O)c(O)c(O)c12	genotype 1b	replicon	-	5 µM
Nc1cc(Cn2c(C(=O)O)c(-c3ccc[nH]c3=O)c3c4ncsc4ccc32)ccn1	-	replicon	-	0.5–1.5 µM
CCCC(NC(=O)C1C2CCCC2CN1C(=O)[C@@H](C)N1CCCCC1)C(=O)C(=O)NC1CC1	1b	replicon	-	<100 µM
CN1CCCC/C=C\[C@@H]2C[C@@]2(C(=O)NS(=O)(=O)C2CC2)NC(=O)[C@@H]2C[C@@H](Oc3ccnc(-c4ccccc4)n3)C[C@H]2C1=O	1b	luciferase / reporter gene / replicon	-	>10 µM
CCCCCOc1ccc(N(C(=O)CC(=O)OC)c2nc(-c3ccc(F)cc3)cs2)cc1C(F)(F)F	-	-	-	<1 µM
CN1CCCC/C=C\[C@@H]2C[C@@]2(C(=O)NS(=O)(=O)C2CC2)NC(=O)[C@@H]2C[C@@H](Oc3ccnc(N4CCOCC4)n3)C[C@H]2C1=O	1b	luciferase / reporter gene / replicon	-	>10 µM
O=C(NS(=O)(=O)C1CC1)c1c(-c2ccc[nH]c2=O)c2c3occc3ccc2n1Cc1cc(F)ccc1F	-	replicon	-	<0.5 µM
C=CC1CC1(NC(=O)[C@@H]1C[C@@H](Oc2cc(-c3ccccc3)nc3cc(OC)ccc23)CN1C(=O)[C@@H](CC(=O)N1CCN(C)CC1)C(C)(C)C)C(=O)O	-	replicon	-	>10 µM
Cc1ccccc1N1C(=O)/C(=C\c2ccc(-c3cccc(Cl)c3)o2)C(=O)N(c2ccccc2)C1=S	-	replicon	-	3.7 µM
CNS(=O)(=O)NC(=O)c1ccc2c(C3CCCCC3)c3n(c2n1)CC(C(=O)N1C[C@@H](C)O[C@@H](C)C1)=Cc1cc(OC)ccc1-3	1b	replicon	-	0.001–0.5 µM
NS(=O)(=O)c1ccc(CNc2nc(NCC(F)(F)F)c3nc(-c4ccc(Cl)c(S(=O)(=O)NC5CCNC5)c4)ccc3n2)cc1	-	replicon	-	<0.1 µM
O=C(O)c1ccc2c(C3CCCCC3)c(-c3ccccc3)n(CC(=O)N3CCOCC3)c2c1	-	-	-	0.38 µM
N=C1Sc2ccccc2C2=NCCCN12	H77	-	-	11 µM
Nc1ncnc2c1c([N+](=O)[O-])cn2[C@@H]1C=C(CO)[C@@H](O)[C@H]1O	-	replicon	-	31.5 µM
CCCC(NC(=O)[C@@H]1C2CCCC2CN1C(=O)[C@@H](NC(=O)[C@@H](NC(=O)CCCCc1nn[nH]n1)C(C)C)C(C)C)C(=O)C(=O)N[C@@H](C)CC	-	-	-	>50 µM
NS(=O)(=O)c1cc(CNc2nc(NCC(F)(F)F)c3nc(-c4ccc(NC(=O)C5(C(F)(F)F)CC5)nc4)ccc3n2)cc(C(F)(F)F)c1	1b	luciferase	-	0.006 µM
CS(=O)(=O)CCNc1nc(NCc2ccc(S(N)(=O)=O)cc2)nc2ccc(-c3ccc(F)c(Cl)c3)nc12	-	replicon	-	<0.1 µM
CCc1coc2c1ccc1c2c(-c2ccc[nH]c2=O)c(C(=O)NS(C)(=O)=O)n1Cc1cc(F)ccc1F	-	replicon	-	<0.5 µM
O=C1C(O)CCN1c1ccc(-c2ccc3nc(NCc4ccc(F)cc4)nc(NCC(F)(F)F)c3n2)cc1	-	replicon	-	<0.1 µM
CCOC(=O)[C@@]12C[C@H]1/C=C\CCCCC[C@H](CC(=O)OC(C)(C)C)C(=O)N1C[C@H](Oc3cc(-c4ccccc4)nc4cc(OC)ccc34)C[C@H]1C(=O)N2	-	replicon	-	>10 µM
CCCC(NC(=O)C1C2CCCC2CN1C(=O)C(C)N1CCCCC1)C(=O)C(=O)NC1CC1	1b	replicon	-	<100 µM
COc1nc(O[C@@H]2C[C@H]3C(=O)N[C@]4(C(=O)NS(=O)(=O)C5(C)CC5)C[C@H]4/C=C\CCCCCNC(=O)N3C2)cc(-c2ccccc2)n1	1b	luciferase / reporter gene / replicon	-	0.2–0.99 µM
COc1ccc2c(c1)C=C(C(=O)N1C[C@@H](C)O[C@@H](C)C1)Cn1c-2c(C2CCCCC2)c2ccc(C(=O)NS(=O)(=O)N(C)C)nc21	1b	replicon	-	0.001–0.5 µM
C=CC1CC1(NC(=O)[C@@H]1C[C@@H](Oc2cc(-c3ccccc3)nc3cc(OC)ccc23)CN1C(=O)[C@@H](CC(=O)N1CCCCC1C(N)=O)C(C)(C)C)C(=O)O	-	replicon	-	1–10 µM
CCCC(NC(=O)C1C2CCCC2CN1C(=O)[C@H](C)N1CCCCC1)C(=O)C(=O)NC1CC1	1b	replicon	-	>100 µM
NS(=O)(=O)c1ccc(CNc2nc(NCC(F)(F)F)c3nc(-c4ccc(F)c(S(=O)(=O)N[C@@H]5CCNC5)c4)ccc3n2)cc1	-	replicon	-	<0.1 µM
C=CC1CC1(NC(=O)[C@@H]1C[C@@H](Oc2cc(-c3ccccc3)nc3cc(OC)ccc23)CN1C(=O)[C@H](C)N1CCCCC1)C(=O)OCC	1b	replicon	-	<100 µM
CCOC(=O)c1c(-c2ccc[nH]c2=O)c2c3occc3c(F)cc2n1Cc1cc(C(N)=O)ccc1F	-	replicon	-	<0.5 µM
CC1(C)CC2=C(C(c3ccc(OCc4ccccc4)c(Cl)c3)N(C(=O)Cc3ccccc3)c3cccc(O)c3N2)S(=O)(=O)C1	1b	-	-	0.7999 µM
CC(C)[C@H](NC(=O)N[C@H](C(=O)N1CC[C@H]2[C@H]1C1(CCC1)C(=O)N2C(=O)C1CC1)C(C)C)C(=O)OC(C)(C)C	-	-	-	0.48 µM
COc1nc(O[C@@H]2C[C@H]3C(=O)N[C@]4(C(=O)NS(=O)(=O)C5CC5)C[C@H]4/C=C\CCCCN(C)C(=O)[C@@H]3C2)cc(C(C)(C)C)n1	1b	luciferase / reporter gene / replicon	-	1–10 µM
COc1ccc(-c2nc(O[C@@H]3C[C@H]4C(=O)N[C@]5(C(=O)NS(=O)(=O)C6CC6)C[C@H]5/C=C\CCCCN(C)C(=O)N4C3)c3ccc(OC)c(C)c3n2)cc1	1b	luciferase / replicon	genotype 1b	0.008 µM
CC(C)(C)OC(=O)N1CCN(S(=O)(=O)c2cc(-c3ccc4nc(NCc5ccc(S(N)(=O)=O)cc5)nc(NCC(F)(F)F)c4n3)ccc2F)CC1	-	replicon	-	<0.1 µM
COc1ccc2c(O[C@@H]3C[C@H]4C(=O)N[C@]5(C(=O)O)C[C@H]5/C=C\CCCCC[C@H](CC(=O)N5CCCCC5)C(=O)N4C3)cc(-c3ccccc3)nc2c1	-	replicon	-	>10 µM